{"sequences": {"note": "The chains behind the UniProt entries cited, without tags or fusion partners.", "UniProt P0A031, whole entry": "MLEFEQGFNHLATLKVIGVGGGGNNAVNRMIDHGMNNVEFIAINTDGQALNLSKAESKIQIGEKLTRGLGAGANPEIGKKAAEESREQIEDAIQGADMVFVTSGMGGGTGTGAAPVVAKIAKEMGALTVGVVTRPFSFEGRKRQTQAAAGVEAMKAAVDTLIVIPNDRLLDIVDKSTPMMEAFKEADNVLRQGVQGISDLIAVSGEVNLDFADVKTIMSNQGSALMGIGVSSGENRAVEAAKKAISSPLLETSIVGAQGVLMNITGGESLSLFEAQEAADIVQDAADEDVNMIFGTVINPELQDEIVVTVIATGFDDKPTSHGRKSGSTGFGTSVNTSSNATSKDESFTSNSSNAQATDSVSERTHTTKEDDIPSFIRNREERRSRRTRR"}, "source": "paper PMC11998009", "about": "“Identification of a New FtsZ Inhibitor by Virtual Screening, Mechanistic Insights, and Structure–Activity Relationship Analyses” (ACS Infectious Diseases, 2025)", "key": {"[1]": {"target": "S. aureus FtsZ protein (FtsZSa) (Staphylococcus aureus, UniProt P0A031)", "test": "In vitro FtsZ GTPase activity (PK/LDH coupled assay)", "type": "biochemical", "conditions": "read-out: IC50 (GTPase activity)"}, "S. aureus ATCC25923": {"tested_on": "S. aureus ATCC25923", "test": "MIC determination by 2-fold microdilution, resazurin method", "type": "cell-based, Staphylococcus aureus", "conditions": "S. aureus ATCC25923, single drug"}}, "note": "The structures given here were assigned with low confidence; some may be wrong.", "data": [{"smiles": "Cn1cccc1-c1noc(CNC(=O)c2ccc(=O)[nH]c2)n1", "values": [{"measurement": "IC50", "setting": "[1]", "result": 14.6, "unit": "µM"}, {"measurement": "MIC S. aureus", "setting": "S. aureus ATCC25923", "result": "≥ 256", "unit": "µg/mL"}]}]}
